From patent US20190038613A1, “COMBINATION THERAPY” (Eli Lilly and Company, priority 2016, published 2019) come the findings set out here.

The target in this test is T1, Aβ […] peptide (Homo sapiens).
T1 construct: flowing pE3-42 Aβ peptide or Aβ 1-40 peptide, starting from 100 nM
Briefly: Binding affinity and kinetics by surface plasmon resonance (BIACORE 3000). Conditions: SPR, peptide 100 nM down to 3.125 nM, 25° C. The protocol:
The binding affinity and kinetics of an anti-[…] […] The binding affinity is measured by capturing the anti-[…] Aβ antibody via immobilized protein A on a BIACORE® CMS chip, and flowing pE3-42 Aβ peptide or Aβ 1-40 peptide, starting from 100 nM in 2-fold serial dilution down to 3.125 nM. The experiments are carried out at 25° C. in HBS-EP buffer (GE Healthcare BR100669; 10 mM HEPES, 150 mM NaCl, 3 mM EDTA, 0.05% surfactant P20, pH 7.4). For each cycle, the antibody is captured with 5 μL injection of antibody solution at a 10 μg/mL concentration with 10 μL/min, flow rate. The peptide is bound with 250 μL injection at 50 μL/min, and then dissociated for 10 minutes. The chip surface is regenerated with 5 μL injection of glycine buffer at pH 1.5 at 10 μL/mL flow rate. The data is fit to a 1:1 Langmiur binding model to derive kon, koff, and to calculate KD.
A general note: SPR reads the build-up and loss of mass on a sensor chip optically.

B1: Antibody I: anti-N3pGlu Abeta antibody with LC of SEQ ID NO: 12 and HC of SEQ ID NO: 11 (antibody)
heavy: QVQLVQSGAEVKKPGSSVKVSCKASGYTFTDYYINWVRQAPGQGLEWMGWINPGSGNTKYNEKFKGRVTITADESTSTAYMELSSLRSEDTAVYYCTREGETVYWGQGTLVTVSSASTKGPSVFPLAPSSKSTSGGTAALGCLVKDYFPEPVTVSWNSGALTSGVHTFPAVLQSSGLYSLSSVVTVPSSSLGTQTYICNVNHKPSNTKVDKKV[human IgG1 Fc not listed]
light: DVVMTQSPLSLPVTLGQPASISCKSSQSLLYSRGKTYLNWFQQRPGQSPRRLIYDVSKLDSGVPDRFSGSGSGTDFTLKISRVEAEDVGVYYCVQGTHYPFTFGQGTKLEIKRTVAAPSVFIFPPSDEQLKSGTASVVCLLNNFYPREAKVQWKVDNALQSGNSQESVTEQDSKDSTYSLSSTLTLSKADYEKHKVYACEVTHQGLSSPVTKSFNRGEC
For the molecule B1, the “binding to Aβ 1-40” value is reported as “No appreciable binding”.

B2: Antibody II: anti-N3pGlu Abeta antibody with LC of SEQ ID NO: 13 and HC of SEQ ID NO: 11 (antibody)
heavy: B1 heavy
light: DIQMTQSPSTLSASVGDRVTITCKSSQSLLYSRGKTYLNWLQQKPGKAPKLLIYAVSKLDSGVPSRFSGSGSGTEFTLTISSLQPDDFATYYCVQGTHYPFTFGQGTKLEIKRTVAAPSVFIFPPSDEQLKSGTASVVCLLNNFYPREAKVQWKVDNALQSGNSQESVTEQDSKDSTYSLSSTLTLSKADYEKHKVYACEVTHQGLSSPVTKSFNRGEC
In the case of B2, the “binding to Aβ 1-40” value is recorded as “No appreciable binding”.
